Taken from: PubChem BioAssay AID504761 (Drosophila RNAi Screening Center, 2011)
Aim: 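Insect host genes that dengue virus relies on to spread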 (primary screen). Cell system: D.Mel-2 cells from Drosophila. Knock-down reagent: long dsRNA against Drosophila genes. Treatment: infection with dengue virus type 2; dose and infection time not stated. Measured: 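Per well on two replicate plates, imaging gave the percent of cells positive for viral envelope protein, ranked by infection, and a nuclear count of cells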. Direction: infection score: higher = more virus-infected cells; cell count: higher = more cells in the well. Active means: 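Very low infection ranking in both replicate wells (chance probability at most 0.065), then a retest showing infection dropped 1.5-fold or more at p below 0.05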. Calls: active = confirmed: knock-down lowers infection; inactive = not picked or not confirmed.
In all, the deposit lists about 22,000 reagents; shown is an unselected part of those that have a named target and a result. Over the whole deposit, 116 (0.52%) were called active. 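Calls depend on retest data that are not deposited; infection was ranked per plate without normalising between plates; the unit of the infection score is not given.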 The raw values are shown without normalisation. Entries without a mark were called inactive. Reagents against one gene are numbered here. Names joined by + are all predicted targets of the reagent. Further read-outs or replicates are left out here. Not given: the amount of reagent, the time to read-out.

predicted target | reagent | infection score, replicate 1 | infection score, replicate 2 | cell count, replicate 1
CG12911 | 1 | 16.3 | 4.57 | 5921
CG12911 | 2 | 3.39 | 8.78 | 6458
Swt1 (Swt1 RNA endoribonuclease) | 1 | 1.44 | 1.18 | 6620
Hsp67Ba (Heat shock gene 67Ba) | 1 | 0.43 | 1.94 | 6048
Hsp67Ba (Heat shock gene 67Ba) | 2 | 1.75 | 1.49 | 6439
uex (unextended) | 1 | 1.66 | 6.92 | 6493
uex (unextended) | 2 | 6.97 | 29.3 | 6599
l(2)05714 (lethal (2) 05714) | 1 | 6 | 4.35 | 5501
l(2)05714 (lethal (2) 05714) | 2 | 15.1 | 6.99 | 6052
nxf4 (nuclear export factor 4) | 1 | 8.23 | 9.35 | 6594
Nrd1 (Nardilysin) | 1 | 2.38 | 1.96 | 6683
CG11779 + CG5835 | 1 | 3.07 | 1.2 | 6151
CG11779 + CG5835 | 2 | 14.9 | 3.77 | 5236
scat (scattered) | 1 | 9.98 | 2.87 | 6084
scat (scattered) | 2 | 12.2 | 11.4 | 6812
CG13203 | 1 | 10.9 | 3.54 | 6877
CG13203 | 2 | 13.7 | 13.4 | 5063
bond (james bond) | 1 | 5.14 | 1.57 | 6900
bond (james bond) | 2 | 10.4 | 6.03 | 6906
Slbp (Stem-loop binding protein) | 1 | 3.12 | 1.6 | 6385
CtsL3 (Cathepsin L3) | 1 | 7.05 | 19.8 | 1490
CtsL3 (Cathepsin L3) | 2 | 2.47 | 2.69 | 6586
mRpL11 (mitochondrial ribosomal protein L11) | 1 | 22.9 | 7.68 | 5092
mRpL14 (mitochondrial ribosomal protein L14) | 1 | 16.5 | 3.79 | 5269
mRpL14 (mitochondrial ribosomal protein L14) | 2 | 14.2 | 7.21 | 5181
Golgin104 (Golgin 104) | 1 | 5.93 | 17.4 | 6575
Golgin104 (Golgin 104) | 2 | 3.38 | 2.63 | 6413
CG16762 | 1 | 2.63 | 3.67 | 6537
RpL40 (Ribosomal protein L40) | 1 | 2.21 | 6.77 | 6641
CG15099 | 1 | 13.4 | 7.73 | 6585
CG13198 | 1 | 12.4 | 7.8 | 5488
CG17707 | 1 | 9.43 | 2.27 | 5852
pont (pontin) | 1 | 24 | 28.9 | 4555
Ets98B (Ets at 98B) | 1 | 1.72 | 8.13 | 6235
Ets98B (Ets at 98B) | 2 | 0.72 | 0.82 | 6136
Wnt10 (Wnt oncogene analog 10) | 1 | 3.96 | 24.9 | 5762
Wnt10 (Wnt oncogene analog 10) | 2 | 25.4 | 11 | 5556
CG8060 | 1 | 5.39 | 9.77 | 6552
Dref (DNA replication-related element factor) | 1 | 4.01 | 6.45 | 6683

Entries above whose target name begins with M or m (3):
predicted target | reagent | infection score, replicate 1 | infection score, replicate 2 | cell count, replicate 1
mRpL11 (mitochondrial ribosomal protein L11) | 1 | 22.9 | 7.68 | 5092
mRpL14 (mitochondrial ribosomal protein L14) | 1 | 16.5 | 3.79 | 5269
mRpL14 (mitochondrial ribosomal protein L14) | 2 | 14.2 | 7.21 | 5181
